For this assay, the target named is H3N2 hemagglutinin (A/Victoria/361/2011) HA trimer (influenza A virus A/Victoria/361/2011 (H3N2)). Description: cryo-EM structure.

In general, stoichiometry N refers to the number of molecules, sites or subunits per partner or assembly.

“H3N2 hemagglutinin (A/Victoria/361/2011) HA trimer (natural protein)” came in with a stoichiometry N of 3.

The values above are taken from PMC8201785, “Sequence-Signature Optimization Enables Improved Identification of Human HV6-1-Derived Class Antibodies That Neutralize Diverse Influenza A Viruses” (2021).
